Pooled drug test results. Numbers come from NIAID ChemDB, via PubChem.

Shared fields: enzyme or target tests; species: Hepatitis C virus; protein: Nonstructural protein 5B; endpoint: IC50

Two numbers with a dash give a range or band. ICn: concentration for n% inhibition. An empty or dashed field is not shown. Lines come from different laboratories, so protocols vary.

compound,strain,read by,value
CC(C)(C)c1cccc(CCC2(C3CCCC3)CC(=O)CC(=O)O2)c1,-,-,1–10 µM
COc1c(-c2ccc3cc(NS(C)(=O)=O)ccc3c2)cc(-n2ccc(=O)[nH]c2=O)cc1C(C)(C)C,GT 2b#1,nucleotide incorporation,>20 µM
CCc1cc2c(C(=O)NC)c(-c3ccc(F)cc3)oc2cc1N(C)S(C)(=O)=O,-,-,≤0.5 µM
O=C(O)CCN1C(=O)C(=Cc2ccc(-c3cc4ccccc4c4ccccc34)o2)SC1=S,-,-,≤1 µM
COc1ccc(CCC2(C3CCCC3)CC(=O)CC(=O)O2)cc1,-,-,1–10 µM
CNC(=O)c1c(-c2ccc(F)cc2)oc2cc(N(C)C)c(OC(C)C)cc12,-,-,≤0.5 µM
Cc1ccc(-c2ccc(C=C3SC(=S)N(CCC(=O)O)C3=O)o2)nc1,-,-,≤1 µM
CNC(=O)c1c(-c2ccc(F)cc2)oc2cc(N(C)S(C)(=O)=O)c(OCC(=O)Nc3nncs3)cc12,-,-,≤0.5 µM
O=C(O)CCN1C(=O)C(=Cc2ccc(-c3cc4ccccc4o3)o2)SC1=S,-,-,≤1 µM
CNC(=O)c1c(-c2ccc(F)cc2)oc2cc(N(CS(C)(=O)=O)c3ccncc3)c(OC)cc12,-,-,≤0.5 µM
O=C1CC(=O)OC(CCc2ccc(O)cc2)(C2CCCC2)C1,-,-,10–50 µM
O=C(O)c1ccc(N2C(=O)C(=Cc3ccc(-c4cc(C(F)(F)F)ccc4Cl)o3)SC2=S)cc1Cl,-,-,≤1 µM
COc1ccc(CCC2(C3CCCC3)CC(=O)CC(=O)O2)c(OC)c1,-,-,10–50 µM
CCCOc1cc2c(C(=O)NC)c(-c3ccc(F)cc3)oc2cc1N(CCC)S(C)(=O)=O,-,-,≤0.5 µM
O=C(O)CCN1C(=O)C(=Cc2ccc(-c3ccc(Cl)s3)o2)SC1=S,-,-,≤1 µM
O=C1CC(=O)OC(CCc2ccc(OC3CCC3)c(F)c2)(C2CCCC2)C1,-,-,1–10 µM
CCCc1ccc(-c2ccc(C=C3SC(=S)N(c4ccc(C(=O)O)cc4)C3=O)o2)cc1,-,-,≤1 µM
COc1ccc(CCC2(C3CCCC3)CC(O)=C(Sc3nc(N)c4[nH]cnc4n3)C(=O)O2)cc1,-,-,<1 µM

For reference, 2 entries again:

CCCc1ccc(-c2ccc(C=C3SC(=S)N(c4ccc(C(=O)O)cc4)C3=O)o2)cc1 ; value: ≤1 µM
O=C1CC(=O)OC(CCc2ccc(O)cc2)(C2CCCC2)C1 ; value: 10–50 µM